A mixed list of measured activities; the numbers were collected in NIAID ChemDB.

Shared fields: host cell toxicity; cells: MT-4; read-out: CC50

Two numbers with a dash give a range or band.

SMILES,result
c1cc(CN2CCCNCCNCCCNCC2)ccc1CN1CCCNCCNCCCNCC1,55 µM
C=C1C[C@@H](n2cnc3c(N)ncnc32)[C@@H]1CO,>100 µM
CCn1cc(C(=O)O)c(=O)c2cc(F)c(N3CCN(c4ccccc4OC)CC3)c(OC(F)F)c21,3.2 µM
Cc1cn([C@H]2C[C@H](N=[N+]=[N-])[C@@H](CO)O2)c(=O)[nH]c1=O,>30 µg/mL
CCCCCCCCCCc1ccc2c(c1)N(C)[C@@H](C(C)C)C(=O)N[C@@H](CO)C2,5 µg/mL
O=C(/C=C/c1ccc(O)cc1)c1ccc(O)cc1O,14 µg/mL
Nc1ccn([C@H]2CC[C@@H](CO)O2)c(=O)n1,219–753 µM
CC(=O)SCCOP(=O)(OCCSC(C)=O)OC[C@@H]1CC[C@H](n2cnc3c(=O)[nH]cnc32)O1,>100 µM
COC(=O)c1nn([C@@H]2CC[C@@H](CO)O2)cc1I,>300 µM
Nc1nc2c(ncn2CC(CO)OCP(=O)(O)O)c(=O)[nH]1,59–168 µM
O=c1[nH]cnc2c1ncn2[C@H]1CC[C@@H](CO)O1,>100 µM
COC(=O)c1nn(COCCO)cc1I,>300 µM
Cc1cn([C@@H]2O[C@H](CO[Si](C)(C)C(C)(C)C)C3(OS(=O)(=O)C=C3N)[C@H]2O[Si](C)(C)C(C)(C)C)c(=O)n(C)c1=O,230 µM
c1cc(CN2CCNCCNCCNCC2)cc(CN2CCNCCNCCNCC2)c1,2.3 µM
Cc1cc2c3c(c1)-c1c(O)cc(-c4cc5ccc(O)cc5o4)cc1OC3(c1ccc(O)cc1O)Oc1cc(O)ccc1-2,9 µg/mL
CC(C)(C)C(=O)SCCOP(=O)(OCCSC(=O)C(C)(C)C)OCC1(Cc2c[nH]c3c(N)ncnc23)CCC1,44.7 µM
Cc1c(Cc2ccc(C#N)cc2)nc(SCC(=O)c2ccccc2)[nH]c1=O,>67.2 µM
CCCCCCCCCC(=O)O[C@@]12[C@H](OC(C)=O)[C@@H](C)[C@@]3(O)[C@@H](C=C(CO)C[C@]4(O)C(=O)C(C)=C[C@@H]34)[C@@H]1C2(C)C,>62.5 µg/mL
CCC(CC1CCOCC1)c1cc(O)c(C(c2cccc(NS(=O)(=O)c3cn(C)cn3)c2)C2CC2)c(=O)o1,>30 µM
Cc1cn([C@H]2C[C@H](N=[N+]=[N-])[C@@H](CO)O2)c(=O)[nH]c1=O,4.24 µM
Cc1cn([C@H]2C=C[C@@H](COP(=O)(O)O)O2)c(=O)[nH]c1=O,42 µM
Nc1ncnc2c1ncn2C1CC(CO)(CO)C1,>500 µM
CCOP(=O)(OCC)OC[C@@H]1C=C[C@H](n2cc(C)c(=O)[nH]c2=O)O1,32 µM
CCCCCCCCCCc1ccc2c(c1)N(C)[C@H](C(C)C)C(=O)N[C@@H](CO)C2,5 µg/mL
Cc1ccnc2c1NC(=O)c1cccnc1N2C1CC1,>97.6 µM
CCCCCCCCCCc1ccc2c(c1)N(C)[C@H](C(C)C)C(=O)N[C@H](CO)C2,5 µg/mL
CC(C)[C@H](NC(=O)[C@H](CCCN=C(N)N)NC(=O)N[C@@H](Cc1ccccc1)C(=O)O)C(=O)N[C@H](CO)Cc1ccccc1,>100 µM
COc1ccc(CCCSc2nc(C(C)c3c(Cl)cccc3Cl)c(C)c(=O)[nH]2)cc1,>10.8 µM
Cc1cn([C@H]2C=C[C@@H](CO)O2)c(=O)[nH]c1=O,47 µM
CC(=O)Oc1ccc(CSc2nc(Cc3c(Cl)cccc3Cl)c(C)c(=O)[nH]2)cc1,>55.68 µM
Nc1nc(N)c2ncn([C@H]3CC[C@@H](CO)O3)c2n1,170.5 µM
Cc1c(Cc2c(Cl)cccc2Cl)nc(S/C=C/c2ccc(F)cc2)[nH]c1=O,>59.38 µM
Nc1ncnc2c1ncn2CCOCP(=O)(OCCSSCCO)OCCSSCCO,20 µM
Nc1nc(N)c2ncn(CC(CO)OCP(=O)(O)O)c2n1,59–168 µM
O=c1[nH]cnc2c1ncn2[C@H]1CC[C@@H](CO)O1,834.2 µM
O=c1[nH]c(=S)[nH]c2c1C(c1ccc(Cl)cc1)c1c([nH]c(=S)[nH]c1=O)O2,137 µM
CC(=O)Oc1ccc(/C=C/C(=O)O[C@H](C(=O)O)[C@H](OC(=O)/C=C/c2ccc(OC(C)=O)c(OC(C)=O)c2)C(=O)O)cc1OC(C)=O,93 µM
COc1ccccc1N1CCN(c2c(F)cc3c(=O)c(C(=O)O)cn(C4CC4)c3c2OC(F)F)CC1,6 µM
C/C=C(\C)C(=O)O[C@@]12[C@H](O)[C@@H](C)[C@@]3(O)[C@@H](C=C(COC(=O)CCCCCCC/C=C\C/C=C\CCCCC)C[C@]4(O)C(=O)C(C)=C[C@@H]34)[C@@H]1C2(C)C,>62.5 µg/mL
CCCCCCCCCCc1ccc2c(c1)N(C)[C@@H](C(C)C)C(=O)N[C@H](CO)CC2,10 µg/mL
Nc1ncnc2c1ncn2CCOCP(=O)(O)O,>10 µM
CNc1ncnc2c1ncn2[C@H]1CC[C@@H](CO)O1,156.3 µM
CCc1c(Cc2c(F)cccc2F)nc(SCc2ccc(C#N)cc2)[nH]c1=O,>62.97 µM
Cc1cn([C@H]2C[C@H](N=[N+]=[N-])[C@@H](CO)O2)c(=O)[nH]c1=O,>100 µM
COc1nc(=O)[nH]c2c1C(c1ccc(Br)cc1)c1c(OC)nc(=O)[nH]c1O2,>309 µM
CC(C)(C)C(=O)SCCOP(=O)(COCCn1cnc2c(N)ncnc21)OCCSC(=O)C(C)(C)C,1.8 µM
CCCCCCCCCCc1ccc2c(c1)N(C)C(C(C)C)C(=O)NC(CO)C2,5 µg/mL
Nc1nc2c(ncn2CCOCP(=O)(O)O)c(=O)[nH]1,21–185 µM
CCCCCCCCCC(=O)O[C@@H]1[C@@H](C)[C@@]2(O)C(C=C(CO)C[C@]3(O)C(=O)C(C)=CC23)C2C(C)(C)[C@@]21OC(=O)C(C)CC,>31.3 µg/mL
CCC(Cc1ccccc1)c1cc(O)c(C(c2cccc(NS(=O)(=O)c3ccc(OC)cc3)c2)C2CC2)c(=O)o1,>30 µM
Cc1cn([C@H]2C[C@H](N=[N+]=[N-])[C@@H](CO)O2)c(=O)[nH]c1=O,3.2 µM
CC(C)=CCc1c(O)cc2oc(-c3ccc(O)cc3)c(O)c(=O)c2c1O,13 µg/mL
Nc1ncnc2c1ncn2CC(CF)OCP(=O)(O)O,>1000 µM
c1cc(CN2CCCSCCSCCCNCC2)ccc1CN1CCCSCCSCCCNCC1,>6.8 µM
CC(C)[C@H](NC(=O)[C@H](CCCN=C(N)N)NC(=O)N[C@@H](Cc1ccccc1)C(=O)O)C(=O)NC(C=O)Cc1ccccc1,>100 µM
C/C=C(/C)C(=O)O[C@]12C(C3C=C(CO)C[C@]4(O)C(=O)C(C)=CC4[C@@]3(O)[C@H](C)[C@H]1OC(C)=O)C2(C)C,>500 µg/mL
c1cc(CN2CCCNCCNCCCNCC2)ccc1CN1CCCNCCNCCCNCC1,>125 µg/mL
Nc1nc(N)c2ncn(CCOCP(=O)(O)O)c2n1,21–185 µM
COC(=O)c1nn([C@H]2C[C@H](O)[C@@H](CO)O2)cc1I,>300 µM
N=c1ncn([C@H]2CC[C@@H](CO)O2)c2nc[nH]c12,>500 µM
Cc1cn([C@H]2C[C@H](N=[N+]=[N-])[C@@H](CO)O2)c(=O)[nH]c1=O,10.8 µM
CCc1c(Sc2cc(C)cc(C)c2)n(COCCO)c(=S)[nH]c1=O,277 µM
O=C1c2ccccc2C(=O)N1CCOC(=S)N(C(=O)c1cccnc1Cl)c1ccc(Cl)cc1,>200 µM
O=c1c(O)c(-c2ccc(O)cc2O)oc2cc(O)cc(O)c12,140 µg/mL
CCC(Cc1ccccc1)c1cc(O)c(C(c2cccc(NS(=O)(=O)c3cn(C)cn3)c2)C2CC2)c(=O)o1,>30 µM

For reference, 7 entries again:

| SMILES | result |
|---|---|
| O=c1c(O)c(-c2ccc(O)cc2O)oc2cc(O)cc(O)c12 | 140 µg/mL |
| CCc1c(Cc2c(F)cccc2F)nc(SCc2ccc(C#N)cc2)[nH]c1=O | >62.97 µM |
| COC(=O)c1nn([C@@H]2CC[C@@H](CO)O2)cc1I | >300 µM |
| Cc1cn([C@H]2C=C[C@@H](COP(=O)(O)O)O2)c(=O)[nH]c1=O | 42 µM |
| Cc1ccnc2c1NC(=O)c1cccnc1N2C1CC1 | >97.6 µM |
| COC(=O)c1nn(COCCO)cc1I | >300 µM |
| Cc1cn([C@H]2C[C@H](N=[N+]=[N-])[C@@H](CO)O2)c(=O)[nH]c1=O | >30 µg/mL |

CCn: concentration that lowers growth or viability of the cells by n%. Neighbouring rows are from separate reports.